Laboratory results from patent US20060002932A1, “Methods and compositions for enhancement of immunity by in vivo depletion of immunosuppressive cell activity” (priority 2004, published 2006).

Sequences of proteins named here, by UniProt entry; tags and fusion partners are left off. Residues count along the entry.
UniProt P01589, 22-272: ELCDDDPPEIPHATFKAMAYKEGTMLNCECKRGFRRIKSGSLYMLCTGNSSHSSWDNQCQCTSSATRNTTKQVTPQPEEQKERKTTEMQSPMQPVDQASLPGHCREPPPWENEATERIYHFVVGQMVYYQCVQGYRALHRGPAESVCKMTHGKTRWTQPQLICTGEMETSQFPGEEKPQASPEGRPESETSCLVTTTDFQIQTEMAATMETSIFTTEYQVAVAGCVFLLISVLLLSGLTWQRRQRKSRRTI
UniProt P14784, 27-551: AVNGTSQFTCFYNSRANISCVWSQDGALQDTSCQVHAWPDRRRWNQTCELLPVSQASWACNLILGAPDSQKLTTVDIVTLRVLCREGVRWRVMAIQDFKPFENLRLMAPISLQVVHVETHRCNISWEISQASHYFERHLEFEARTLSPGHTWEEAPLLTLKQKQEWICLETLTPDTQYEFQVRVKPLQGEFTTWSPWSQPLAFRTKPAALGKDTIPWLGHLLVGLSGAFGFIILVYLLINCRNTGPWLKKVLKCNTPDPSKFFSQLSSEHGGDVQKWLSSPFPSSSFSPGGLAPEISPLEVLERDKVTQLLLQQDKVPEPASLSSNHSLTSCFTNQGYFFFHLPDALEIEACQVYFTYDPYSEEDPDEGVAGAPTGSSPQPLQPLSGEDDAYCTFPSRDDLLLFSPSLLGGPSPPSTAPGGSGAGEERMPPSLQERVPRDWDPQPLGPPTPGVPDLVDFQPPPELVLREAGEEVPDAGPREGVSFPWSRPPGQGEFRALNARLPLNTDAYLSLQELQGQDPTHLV
UniProt P31785, 23-369: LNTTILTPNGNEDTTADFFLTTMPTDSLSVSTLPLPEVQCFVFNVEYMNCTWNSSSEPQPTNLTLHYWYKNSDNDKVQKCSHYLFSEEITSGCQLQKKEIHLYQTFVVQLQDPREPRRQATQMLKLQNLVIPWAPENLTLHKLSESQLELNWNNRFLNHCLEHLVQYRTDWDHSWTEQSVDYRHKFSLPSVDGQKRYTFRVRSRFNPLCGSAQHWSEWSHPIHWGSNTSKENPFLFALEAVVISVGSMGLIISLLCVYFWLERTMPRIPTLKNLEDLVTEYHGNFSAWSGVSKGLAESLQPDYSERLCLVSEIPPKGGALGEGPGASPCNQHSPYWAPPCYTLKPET

Key:
[1] = target: high-affinity IL-2 receptor (Homo sapiens, UniProt P01589+P14784+P31785); settings: read-out: dissociation constant; DAB389IL-2 and the high-affinity IL-2 receptor; cited from earlier work
[2] = system: PBMC and regulatory T cells mixed at 1:1 ratio; settings: PBMC and Treg 1:1, DAB389IL-2 5 nM, 48 hours

For denileukin diftitox [DAB389IL-2], the Kd [1] is listed as 1 pM and the “reduction of cell viability” value [2] is listed as “more than 60%”.
